Patent US12490739B2, “Synergistically effective fungicide composition comprising choline phosphonate and at least one additional fungicide” (BELCHIM CROP PROTECTION NV, priority 2019, dated 2025)

Columns and labels:
Format in all cases: in vivo
[1] = tested on: Podosphaera leucotricha; assay: Example 14 field trials, apple (Malus domestica var. Gold Rush, var. Morgenduft Dallago) infected with powdery mildew; conditions: 100 leaves, 1948.15 g a.c./ha
[2] = tested on: Venturia inaequalis; assay: Example 5 field trials, apple (Malus domestica var. Golden delicious) infected with scab; conditions: 1950 g a.c./ha
[3] = tested on: Peronospora cumensis; assay: Example 2 field trial, cucumber (Cucumis sativus) infected with downy mildew, France; conditions: PESSEV, 1500 g a.c./ha
[4] = tested on: Sphaerotheca fuliginea; assay: Example 8 field trial, cucumber (Cucumis sativus) infected with powdery mildew, Spain; conditions: 7 DA-A3, BBCH 63, 430 g a.c./ha
[5] = tested on: Venturia inaequalis; assay: Example 4 field trials, apple (Malus domestica var. Golden delicious) infected with scab; conditions: 1950 g a.c./ha
[6] = tested on: Plasmopara viticola; assay: Example 1 field trial, Vitis vinifera var. Chardonnay infected with downy mildew, South Africa; conditions: 1620 g a.c./ha
[7] = tested on: Plasmopara viticola; assay: Example 7 field trial, Vitis vinifera var. Merlot infected with downy mildew, France; conditions: 3250 g a.c./ha
[8] = tested on: Sphaerotheca fuliginea; assay: Example 3 field trial, cucumber (Cucumis sativus var. Bosco) infected with powdery mildew, Italy; conditions: 3500 g a.c./ha
[9] = PESINC, location 1 (France), 6 DA-A4, BBCH 72
[10] = PESINC, location 3 (Belgium), 31 DA-A9, BBCH 73
[11] = PESINC, location 3 (Belgium), 80 DA-A9, BBCH 73

choline phosphonate
CP f.e. (%) ([1]; PESINC, location 1 (France), 5 DA-A8, BBCH 74): 34.0% | CP f.e. (%) ([1]; PESINC, location 1 (France), 6 DA-A6, BBCH 74): 44.2% | CP f.e. (%) ([1]; PESINC, location 1 (France), 15 DA-A8, BBCH 76): 18.6% | CP f.e. (%) ([1]; PESINC, location 1, 5 DA-A8, BBCH 74, second listing (r52)): 37.7% | CP f.e. (%) ([1]; PESINC, location 1, 6 DA-A6, BBCH 74, second listing (r46)): 23.6% | CP f.e. (%) ([1]; PESINC, location 1, 15 DA-A8, BBCH 76, second listing (r58)): 14.1% | CP f.e. (%) ([1]; PESSEV, location 1 (France), 5 DA-A8, BBCH 74): 62.5% | CP f.e. (%) ([1]; PESSEV, location 1 (France), 6 DA-A6, BBCH 74): 53.1% | CP f.e. (%) ([1]; PESSEV, location 1 (France), 15 DA-A8, BBCH 76): 34.2% | CP f.e. (%) ([1]; PESSEV, location 1, 5 DA-A8, BBCH 74, second listing (r49)): 19.3% | CP f.e. (%) ([1]; PESSEV, location 1, 6 DA-A6, BBCH 74, second listing (r43)): 30.4% | CP f.e. (%) ([1]; PESSEV, location 1, 15 DA-A8, BBCH 76, second listing (r55)): 12.2% | CP f.e. (%) [2, 9]: 10.0% | CP f.e. (%) ([2]; PESINC, location 2 (Italy), 4 DA-A11, BBCH 75): 29.3% | CP f.e. (%) ([2]; PESINC, location 2 (Italy), 6 DA-A9, BBCH 74): 50.7% | CP f.e. (%) ([2]; PESINC, location 2 (Italy), 6 DA-A13, BBCH 77): 19.7% | CP f.e. (%) ([2]; PESINC, location 2 (Italy), 7 DA-A6, BBCH 72): 45.7% | CP f.e. (%) [2, 10]: 41.1% | CP f.e. (%) [2, 11]: 31.7% | CP f.e. (%) ([2]; PESSEV, location 2 (Italy), 4 DA-A11, BBCH 75): 65.6% | CP f.e. (%) ([2]; PESSEV, location 2 (Italy), 6 DA-A9, BBCH 74): 66.6% | CP f.e. (%) ([2]; PESSEV, location 2 (Italy), 6 DA-A13, BBCH 77): 57.8% | CP f.e. (%) ([2]; PESSEV, location 2 (Italy), 7 DA-A6, BBCH 72): 81.7% | CP f.e. (%) ([3]; 6 DA-A2, BBCH 19): 63.8% | CP f.e. (%) ([3]; 7 DA-A1, BBCH 16): 78.1% | CP f.e. (%) ([3]; 7 DA-A4, BBCH 19): 73.8% | CP f.e. (%) ([3]; 8 DA-A3, BBCH 19): 63.9% | CP f.e. (%) ([3]; 14 DA-A4, BBCH 19): 60.1% | CP f.e. (%) ([4]; PESINC): 80.6% | CP f.e. (%) ([4]; PESSEV): 90.8% | CP f.e. (%) ([5]; PESINC, location 1 (France), 1 DA-A6, BBCH 74): 7.4% | CP f.e. (%) [5, 9]: 12.5% | CP f.e. (%) ([5]; PESINC, location 2 (United Kingdom), 5 DA-A8, BBCH 74): 61.0% | CP f.e. (%) [5, 10]: 41.1% | CP f.e. (%) [5, 11]: 31.7% | CP f.e. (%) ([5]; PESSEV, location 1 (France), 1 DA-A6, BBCH 74): 35.7% | CP f.e. (%) ([5]; PESSEV, location 1 (France), 6 DA-A4, BBCH 72): 32.7% | CP f.e. (%) ([6]; PESINC, 50 bunches, 14 DA-A3, BBCH 77): 7.2% | CP f.e. (%) ([6]; PESINC, 50 bunches, 14 DA-A5, BBCH 83): 8.2% | CP f.e. (%) ([6]; PESINC, 100 leaves, 14 DA-A3, BBCH 77): 74.5% | CP f.e. (%) ([6]; PESSEV, 50 bunches, 14 DA-A3, BBCH 77): 34.1% | CP f.e. (%) ([6]; PESSEV, 50 bunches, 14 DA-A5, BBCH 83): 32.5% | CP f.e. (%) ([6]; PESSEV, 100 leaves, 14 DA-A3, BBCH 77): 83.8% | CP f.e. (%) ([7]; PESINC, 50 bunches, 0 DA-A3, BBCH 73): 50.6% | CP f.e. (%) ([7]; PESINC, 50 bunches, 0 DA-A5, BBCH 77): 12.0% | CP f.e. (%) ([7]; PESINC, 50 bunches, 9 DA-A6, BBCH 83): 10.0% | CP f.e. (%) ([7]; PESINC, 100 leaves, 0 DA-A3, BBCH 73): 59.2% | CP f.e. (%) ([7]; PESINC, 100 leaves, 0 DA-A5, BBCH 77): 23.5% | CP f.e. (%) ([7]; PESINC, 100 leaves, 9 DA-A6, BBCH 83): 16.2% | CP f.e. (%) ([7]; PESSEV, 50 bunches, 0 DA-A5, BBCH 77): 54.9% | CP f.e. (%) ([7]; PESSEV, 50 bunches, 9 DA-A6, BBCH 83): 26.5% | CP f.e. (%) ([8]; PESINC curative, 7 DA-A2, BBCH 73): 77.1% | CP f.e. (%) ([8]; PESINC curative, 7 DA-A3, BBCH 76): 71.7% | CP f.e. (%) ([8]; PESINC curative, 7 DA-A4, BBCH 77): 60% | CP f.e. (%) ([8]; PESINC curative, 14 DA-A4, BBCH 78): 38.6% | CP f.e. (%) ([8]; PESINC, 7 DA-A2, BBCH 73): 74.3% | CP f.e. (%) ([8]; PESINC, 7 DA-A3, BBCH 76): 78.8% | CP f.e. (%) ([8]; PESINC, 7 DA-A4, BBCH 77): 70.0%
